# From PubChem BioAssay AID651610 (Broad Institute, 2012)
# The list shows a part of the results, in another mix than the full data. Some structures show a salt or complex split into parts, the way the source records it. Active and inactive are the calls of the source.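 Rule for the calls: active = mean replicate inhibition score of at least 50 and every replicate individually at or above 50; inconclusive = only one of the two criteria met; inactive = mean below 50 and not all replicates reaching 50.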
# Experiment: inhibitors of HIV-1 Env-driven cell-cell fusion, primary screen, HeLa-JRFL effector, CEM21 target cells, luciferase (AID 651610);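 note: 0% = plate neutral controls and 100% = maraviroc near 300 nM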
# Conditions: at 12.3 µM, hits give high values
row,Compound,inhibition
1,COc1ccc2c(c1O)-c1c(O)c(OC)cc3c1[C@H](C2)[N+](C)(C)CC3.O=[N+]([O-])c1cc([N+](=O)[O-])c([O-])c([N+](=O)[O-])c1[O-],inactive: 13.6%
2,C[C@H]1OP(=O)(Oc2ccccc2)C[C@@H]2O[C@@H]21 (some centres not stated),inactive: -2.38%
3,C[C@@H]1C=CCP(=O)(Oc2ccccc2)O1 (some centres not stated),inactive: 26.1%
4,O=C(OCCN1CCN(CCOCc2ccccc2)CC1)C(O)(c1ccccc1)c1ccccc1,inactive: 14.1%
5,Cc1ccccc1CN(C)C(=O)COC(=O)C(O)(c1ccccc1)c1ccccc1,inactive: 9.19%
6,COC(=O)C1(C)COP(=O)(NCc2ccccc2)OC1 (configuration not stated),inactive: -1.9%
7,O=C(OC1CN2CCC1CC2)c1ccc([N+](=O)[O-])cc1 (configuration not stated),inactive: 6.35%
8,CC(=O)c1ccc(N2CC2c2ccncc2)cc1 (configuration not stated),inactive: 0.999%
9,N#C/C(=C\c1ccc(N(CCBr)CCBr)cc1)C(N)=O,inactive: 16%
10,COc1ccc(OP(C)(=O)Nc2ccc(SC(F)(F)F)cc2)cc1 (configuration not stated),inactive: 18.6%
11,CCOC(=O)c1ccc(NP(C)(=O)Oc2ccc(F)cc2)cc1 (configuration not stated),inactive: 29%
12,O=P1(N(CCCl)CCCl)OCCC2CCCCN21 (configuration not stated),inactive: -4.07%
13,Cc1ccc(NP(=O)(Oc2cccc(C)c2)Oc2cccc(C)c2)nc1,inactive: -42.1%
14,CCN(CC)CCCNc1ccccc1[N+](=O)[O-].O=[N+]([O-])c1cc([N+](=O)[O-])c(O)c([N+](=O)[O-])c1,inactive: -3.14%
15,c1ccc(-c2nn[nH]n2)c(-c2nn[nH]n2)c1,inactive: -1.99%
16,O=C(NC1CCS(=O)(=O)C1)NP(=S)(Oc1ccccc1)Oc1ccccc1 (configuration not stated),inactive: 13.1%
17,CCNC(=S)/N=C(\N)N[N+](=O)[O-],inactive: 12.8%
18,O=[N+]([O-])c1cc([N+](=O)[O-])c(OC2CCCCC2O)c([N+](=O)[O-])c1 (configuration not stated),inactive: -55.3%
19,CCCCCOc1ccc(NP(C)(=O)Oc2ccc(Cl)cc2Cl)cc1 (configuration not stated),inactive: 14.8%

row,Compound,inhibition
1,O=c1c2cc([N+](=O)[O-])ccc2[nH]c2c([N+](=O)[O-])cc([N+](=O)[O-])cc12,inactive: 20.3%
2,CN(C)C(=O)Oc1noc2ccccc12,inactive: 8.77%
3,CC(NC(=O)COC(=O)C(O)(c1ccccc1)c1ccccc1)c1ccccc1 (configuration not stated),inactive: 7.19%
4,Cc1ccccc1OP(=O)(Nc1ccccn1)Oc1ccccc1C,inactive: 20%
5,CP(=O)(Nc1ccccc1)Oc1ccc(F)cc1 (configuration not stated),inactive: -28%
6,CCN(CC)CCCOC(=O)C(O)(c1ccccc1)C1CCCCC1 (configuration not stated),inactive: 20.7%
7,O=C(OC1CN2CCC1CC2)c1ccccc1 (configuration not stated),inactive: 7.33%
8,CC(=O)NC(SC(=S)N(CC(C)C)CC(C)C)C(Cl)(Cl)Cl (configuration not stated),inactive: -4.48%
9,Cc1ccc(OP(=O)(Nc2ccccn2)Oc2ccc(C)cc2)cc1,inactive: 2.2%
10,Cc1c([N+](=O)[O-])cc([N+](=O)[O-])c(Br)c1[N+](=O)[O-],inactive: -9.07%
11,COc1ccc(NP(C)(=O)Oc2ccccc2OC)cc1 (configuration not stated),inactive: -8.69%
12,C[C@H]1OP(=O)(Oc2ccccc2)[C@H](O)[C@H](O)[C@H]1N=[N+]=[N-] (some centres not stated),inactive: 0.014%
13,O=P(Nc1nc2ccccc2s1)(c1ccccc1)c1ccccc1,inactive: -0.252%
14,CN(C)C1(CNC(=O)c2ccc(Cl)c(S(N)(=O)=O)c2)CCCCC1,inactive: 12.8%
15,O=P(Nc1ccccn1)(c1ccc(Br)cc1)c1ccc(Br)cc1,inactive: 25.6%
16,COc1ccc(N)c([N+](=O)[O-])c1[N+](=O)[O-],inactive: -10.8%
17,COc1ccc(OP(C)(=O)Nc2cccc(Br)c2)cc1 (configuration not stated),inactive: -87.3%
18,O=C(OC1CN2CCC1CC2)c1cccc(Cl)c1 (configuration not stated),inactive: -75.4%
19,C(Cc1nn[nH]n1)Cc1nn[nH]n1,inactive: 23.8%

row,Compound,inhibition
1,Nc1ccc([As](=O)(O)c2ccc([N+](=O)[O-])cc2)cc1,inactive: -12.6%
2,Cc1c(C(c2ccc3c(c2)OCO3)c2c(C)n(C)n(-c3ccccc3)c2=O)c(=O)n(-c2ccccc2)n1C.O=[N+]([O-])c1cc([N+](=O)[O-])c(O)c([N+](=O)[O-])c1,inactive: -4.18%
3,C/C(N)=N\P(=O)(OCc1ccccc1)OCc1ccccc1,inactive: 17.7%
4,Cc1cc(-c2cccc3ccccc23)c(C)cn1.O=[N+]([O-])c1cc([N+](=O)[O-])c(O)c([N+](=O)[O-])c1,inactive: -10.8%
5,O=[N+]([O-])c1cc([N+](=O)[O-])c(NCC2CCS(=O)(=O)C2)c([N+](=O)[O-])c1 (configuration not stated),inactive: 2.35%
6,O=[As](O)(c1ccccc1)c1ccc(O)cc1,inactive: -6.55%
7,O=[N+]([O-])c1ccc(OP2(=O)COCCO2)cc1 (configuration not stated),inactive: -6.04%
8,CC(=O)NC(SC(=S)N(C)C)C(Cl)(Cl)Cl (configuration not stated),inactive: -19.4%
9,O=[N+]([O-])c1ncn(CCn2cnc([N+](=O)[O-])n2)n1,inactive: -0.856%
10,c1nnnn1CCn1cnnn1,inactive: -140%
11,CCOP(C)(=S)SCC(=O)NC(C)(CC)C(=O)O (configuration not stated),inactive: 2.86%
12,CC(C)C(=O)NC(Sc1ccccc1)C(Cl)(Cl)Cl (configuration not stated),inactive: -119%
13,CP(=O)(Nc1ccc(SC(F)(F)F)cc1)Oc1ccc(F)cc1 (configuration not stated),inactive: 14.2%
14,O=[N+]([O-])c1cc([N+](=O)[O-])c(C(F)(F)F)c([N+](=O)[O-])c1O,inactive: -8.15%
15,CC(C)(C)C(=O)NC(Sc1ncccn1)C(Cl)(Cl)Cl (configuration not stated),inactive: 3.95%
16,Clc1n[nH]nc1-c1nn[nH][15n]1,inactive: -133%
17,O=P1(N(CCCl)CCCl)NCCC(C(F)(F)F)O1 (configuration not stated),inactive: -24.7%
18,CN(Cc1cccnc1)C(=O)COc1ccc(Cl)c(Cl)c1.O=[N+]([O-])c1cc([N+](=O)[O-])c(O)c([N+](=O)[O-])c1,inactive: -3.47%
19,O=[N+]([O-])c1cc([N+](=O)[O-])c(-n2nnc3ccccc32)c([N+](=O)[O-])c1,inactive: 9.19%
